Measured values from paper PMC10302633 (Marine Drugs, 2023).

Protein sequences, listed by entry. Tags and fused reporters are not part of them. Residues count along the entry.
UniProt Q05941, 23-502 limits assumed: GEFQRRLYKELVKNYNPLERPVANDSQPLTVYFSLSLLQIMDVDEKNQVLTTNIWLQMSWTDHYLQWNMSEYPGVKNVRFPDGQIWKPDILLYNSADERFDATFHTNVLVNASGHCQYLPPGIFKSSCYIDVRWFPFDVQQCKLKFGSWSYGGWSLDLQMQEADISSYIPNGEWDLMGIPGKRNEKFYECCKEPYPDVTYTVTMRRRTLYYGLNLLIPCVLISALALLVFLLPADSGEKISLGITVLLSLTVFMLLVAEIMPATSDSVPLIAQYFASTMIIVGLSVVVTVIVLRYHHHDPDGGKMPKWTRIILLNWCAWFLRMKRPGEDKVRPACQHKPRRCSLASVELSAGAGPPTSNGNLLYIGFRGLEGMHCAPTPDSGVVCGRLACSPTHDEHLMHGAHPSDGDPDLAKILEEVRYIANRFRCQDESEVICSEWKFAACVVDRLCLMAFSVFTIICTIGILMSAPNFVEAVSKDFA
UniProt P36544, 23-502 limits assumed: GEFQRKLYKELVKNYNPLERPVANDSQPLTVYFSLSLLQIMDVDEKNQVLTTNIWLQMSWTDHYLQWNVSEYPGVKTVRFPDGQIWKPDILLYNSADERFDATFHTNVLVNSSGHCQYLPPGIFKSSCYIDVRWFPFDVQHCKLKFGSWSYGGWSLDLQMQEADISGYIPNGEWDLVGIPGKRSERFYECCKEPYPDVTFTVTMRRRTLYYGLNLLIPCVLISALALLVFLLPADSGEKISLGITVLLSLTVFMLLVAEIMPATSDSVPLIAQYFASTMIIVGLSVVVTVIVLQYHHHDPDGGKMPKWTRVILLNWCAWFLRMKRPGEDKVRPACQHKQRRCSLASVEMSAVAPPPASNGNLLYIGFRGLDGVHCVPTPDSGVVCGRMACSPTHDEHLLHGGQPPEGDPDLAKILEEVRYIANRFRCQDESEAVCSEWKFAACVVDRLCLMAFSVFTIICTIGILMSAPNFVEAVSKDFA
UniProt P04757, 26-499 limits assumed: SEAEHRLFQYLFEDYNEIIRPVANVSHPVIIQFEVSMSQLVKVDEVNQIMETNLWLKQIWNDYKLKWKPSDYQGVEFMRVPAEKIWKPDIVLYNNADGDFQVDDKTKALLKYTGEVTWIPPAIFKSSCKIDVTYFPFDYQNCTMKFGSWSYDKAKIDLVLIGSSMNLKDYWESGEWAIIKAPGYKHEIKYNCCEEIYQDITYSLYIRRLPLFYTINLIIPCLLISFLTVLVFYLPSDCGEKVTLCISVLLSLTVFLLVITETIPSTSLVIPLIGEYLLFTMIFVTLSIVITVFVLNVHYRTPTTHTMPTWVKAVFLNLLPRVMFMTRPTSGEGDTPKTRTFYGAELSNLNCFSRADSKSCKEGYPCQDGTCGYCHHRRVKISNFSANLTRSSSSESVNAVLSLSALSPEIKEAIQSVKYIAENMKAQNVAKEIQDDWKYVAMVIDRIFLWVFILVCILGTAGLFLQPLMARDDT
UniProt P04757, whole entry, looked up: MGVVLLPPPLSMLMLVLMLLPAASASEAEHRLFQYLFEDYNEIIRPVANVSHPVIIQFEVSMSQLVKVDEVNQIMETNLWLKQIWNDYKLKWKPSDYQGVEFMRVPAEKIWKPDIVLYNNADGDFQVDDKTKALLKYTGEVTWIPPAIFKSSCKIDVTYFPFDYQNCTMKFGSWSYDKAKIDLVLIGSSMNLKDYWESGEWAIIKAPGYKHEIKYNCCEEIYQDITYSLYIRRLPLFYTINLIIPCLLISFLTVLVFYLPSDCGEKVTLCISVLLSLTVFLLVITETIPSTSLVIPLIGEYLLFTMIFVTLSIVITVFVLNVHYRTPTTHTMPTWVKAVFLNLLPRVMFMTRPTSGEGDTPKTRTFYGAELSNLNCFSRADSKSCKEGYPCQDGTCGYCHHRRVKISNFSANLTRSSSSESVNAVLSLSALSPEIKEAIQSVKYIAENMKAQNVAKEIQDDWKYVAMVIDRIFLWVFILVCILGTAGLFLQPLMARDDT
UniProt P12390, 25-500 limits assumed: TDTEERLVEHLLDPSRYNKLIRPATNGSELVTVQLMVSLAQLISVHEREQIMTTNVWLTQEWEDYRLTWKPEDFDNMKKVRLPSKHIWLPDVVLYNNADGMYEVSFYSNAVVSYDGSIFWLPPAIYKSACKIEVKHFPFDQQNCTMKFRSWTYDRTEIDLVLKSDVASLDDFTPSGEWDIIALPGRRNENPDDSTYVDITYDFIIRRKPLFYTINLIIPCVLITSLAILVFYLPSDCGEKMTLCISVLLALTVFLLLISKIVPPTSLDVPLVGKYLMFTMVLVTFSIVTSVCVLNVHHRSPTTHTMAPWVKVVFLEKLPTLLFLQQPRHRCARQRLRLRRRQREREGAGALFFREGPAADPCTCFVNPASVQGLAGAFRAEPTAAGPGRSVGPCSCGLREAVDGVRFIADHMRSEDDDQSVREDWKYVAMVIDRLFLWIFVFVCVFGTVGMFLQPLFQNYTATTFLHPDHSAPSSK
UniProt P09483, 31-630 limits assumed: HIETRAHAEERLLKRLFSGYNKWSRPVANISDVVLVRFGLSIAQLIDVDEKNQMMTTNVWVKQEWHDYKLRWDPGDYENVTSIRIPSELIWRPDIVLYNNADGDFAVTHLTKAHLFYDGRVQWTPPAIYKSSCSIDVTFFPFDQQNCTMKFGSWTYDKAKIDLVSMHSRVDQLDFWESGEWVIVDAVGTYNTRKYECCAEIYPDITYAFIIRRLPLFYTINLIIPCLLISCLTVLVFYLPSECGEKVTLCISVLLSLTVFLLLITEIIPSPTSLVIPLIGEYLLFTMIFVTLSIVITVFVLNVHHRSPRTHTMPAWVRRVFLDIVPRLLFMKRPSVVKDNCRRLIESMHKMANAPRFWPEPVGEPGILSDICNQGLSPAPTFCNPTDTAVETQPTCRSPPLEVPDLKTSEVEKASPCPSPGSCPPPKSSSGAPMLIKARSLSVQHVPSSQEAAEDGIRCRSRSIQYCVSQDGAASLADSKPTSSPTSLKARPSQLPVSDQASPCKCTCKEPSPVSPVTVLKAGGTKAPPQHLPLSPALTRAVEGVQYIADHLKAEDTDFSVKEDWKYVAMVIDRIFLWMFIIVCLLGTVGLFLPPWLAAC
UniProt P12392, 21-495 limits assumed: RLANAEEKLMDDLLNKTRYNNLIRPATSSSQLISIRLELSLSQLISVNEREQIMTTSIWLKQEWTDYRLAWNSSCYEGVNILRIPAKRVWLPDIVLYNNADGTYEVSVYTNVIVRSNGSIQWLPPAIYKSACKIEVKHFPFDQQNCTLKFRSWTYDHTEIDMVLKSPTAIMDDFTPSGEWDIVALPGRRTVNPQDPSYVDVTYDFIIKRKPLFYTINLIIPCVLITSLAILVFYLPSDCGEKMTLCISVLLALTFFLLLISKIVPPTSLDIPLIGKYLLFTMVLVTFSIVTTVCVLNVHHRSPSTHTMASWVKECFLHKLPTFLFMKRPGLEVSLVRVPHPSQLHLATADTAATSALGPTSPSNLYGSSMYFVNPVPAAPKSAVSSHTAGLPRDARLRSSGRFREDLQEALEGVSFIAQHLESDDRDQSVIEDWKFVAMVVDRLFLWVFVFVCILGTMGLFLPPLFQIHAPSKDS
UniProt P12392, whole entry, looked up: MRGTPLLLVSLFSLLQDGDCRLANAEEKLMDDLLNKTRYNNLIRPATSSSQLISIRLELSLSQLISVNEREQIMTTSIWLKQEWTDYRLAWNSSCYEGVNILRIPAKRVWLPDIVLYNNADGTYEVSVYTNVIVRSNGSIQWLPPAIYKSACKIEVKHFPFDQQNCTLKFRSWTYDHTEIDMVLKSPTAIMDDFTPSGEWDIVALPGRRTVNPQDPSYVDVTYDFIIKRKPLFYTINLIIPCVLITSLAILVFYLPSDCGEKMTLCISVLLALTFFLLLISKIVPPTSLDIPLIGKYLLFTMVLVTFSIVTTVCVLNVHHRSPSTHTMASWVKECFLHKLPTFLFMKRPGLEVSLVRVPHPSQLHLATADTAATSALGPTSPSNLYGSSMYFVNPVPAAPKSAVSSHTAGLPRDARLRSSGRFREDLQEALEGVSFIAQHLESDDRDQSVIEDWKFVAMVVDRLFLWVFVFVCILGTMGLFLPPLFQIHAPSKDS
UniProt P12389, 28-511 limits assumed: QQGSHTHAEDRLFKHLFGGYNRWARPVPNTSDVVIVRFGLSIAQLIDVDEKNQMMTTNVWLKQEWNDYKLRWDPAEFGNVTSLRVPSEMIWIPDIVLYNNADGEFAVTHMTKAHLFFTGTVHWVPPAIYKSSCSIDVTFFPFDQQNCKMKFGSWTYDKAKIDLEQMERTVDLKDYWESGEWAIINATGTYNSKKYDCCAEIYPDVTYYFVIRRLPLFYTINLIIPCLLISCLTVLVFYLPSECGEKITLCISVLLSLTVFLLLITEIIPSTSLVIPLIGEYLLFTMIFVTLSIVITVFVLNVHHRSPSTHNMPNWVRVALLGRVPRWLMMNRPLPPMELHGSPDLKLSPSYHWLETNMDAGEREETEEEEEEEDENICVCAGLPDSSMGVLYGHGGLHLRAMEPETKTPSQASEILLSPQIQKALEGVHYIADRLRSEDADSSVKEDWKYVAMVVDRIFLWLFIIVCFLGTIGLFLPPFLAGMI
UniProt P43143, whole entry M241L/F253L/V303I/V320I/I327V/A333T/K339T, looked up: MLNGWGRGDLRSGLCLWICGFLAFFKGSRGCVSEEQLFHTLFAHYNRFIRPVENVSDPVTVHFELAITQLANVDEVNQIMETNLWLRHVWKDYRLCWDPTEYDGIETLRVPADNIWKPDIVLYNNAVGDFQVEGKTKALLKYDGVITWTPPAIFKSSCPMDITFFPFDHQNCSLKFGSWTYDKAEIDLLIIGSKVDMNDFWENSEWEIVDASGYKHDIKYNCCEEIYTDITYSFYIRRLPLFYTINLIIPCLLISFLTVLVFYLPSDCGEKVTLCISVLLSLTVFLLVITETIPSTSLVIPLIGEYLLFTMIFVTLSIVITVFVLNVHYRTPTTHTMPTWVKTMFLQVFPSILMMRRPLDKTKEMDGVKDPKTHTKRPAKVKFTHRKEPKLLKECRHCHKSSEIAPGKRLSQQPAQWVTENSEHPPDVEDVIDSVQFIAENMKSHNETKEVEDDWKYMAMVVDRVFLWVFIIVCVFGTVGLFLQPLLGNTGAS

Experiments:
rat α7 nAChRs = rat α7 nAChRs (Rattus norvegicus, UniProt Q05941); assay: Two-electrode voltage clamp, inhibition of ACh-evoked currents, rat α7 nAChR in Xenopus oocytes; type: cell-based; conditions: read-out: IC50 (95% CI), rα7, −70 mV, 200 μM ACh pulse, 5 min pre-incubation with toxin, n = 3 (RgIA), 11 (RgIA[11r])
human α7 nAChRs = human α7 nAChRs (Homo sapiens, UniProt P36544); assay: Two-electrode voltage clamp, inhibition of ACh-evoked currents, human α7 nAChR in Xenopus oocytes; type: cell-based; conditions: read-out: IC50 (95% CI), hα7, −70 mV, 200 μM ACh pulse, 5 min pre-incubation with toxin, n = 4 (RgIA), 7 (RgIA[11r])
[1] = Analytical RP-UPLC retention time as measure of hydrophilicity; conditions: chromatographic, ACQUITY UPLC BEH C18 (1.7 µm, 2.1 × 50 mm); buffer A 0.05% TFA in water, buffer B 90% aqueous acetonitrile; linear gradient, 0.5 mL/min; UV 214 nm; folded peptide
Serum stability assay = conditions: human serum from male AB plasma, pre-incubated 15 min at 37 °C, peptide 0.1 mg/mL, sampling 0–480 min, urea/TCA work-up, RP-UPLC peak area vs 0 min, n = 6
rat α3β2 nAChR = rat α3β2 nAChR (Rattus norvegicus, UniProt P04757+P12390); assay: Two-electrode voltage clamp, rat α3β2 nAChR in Xenopus oocytes; conditions: 10 μM peptide, n = 3–6
rat α4β4 nAChR = rat α4β4 nAChR (Rattus norvegicus, UniProt P09483+P12392); assay: Two-electrode voltage clamp, rat α4β4 nAChR in Xenopus oocytes; conditions: 10 μM peptide, n = 3–6
rat α3β4 nAChR = rat α3β4 nAChR (Rattus norvegicus, UniProt P04757+P12392); assay: Two-electrode voltage clamp, rat α3β4 nAChR in Xenopus oocytes; conditions: 10 μM peptide, n = 3–6
rat α4β2 nAChR = rat α4β2 nAChR (Rattus norvegicus, UniProt P09483+P12390); assay: Two-electrode voltage clamp, rat α4β2 nAChR in Xenopus oocytes; conditions: 10 μM peptide, n = 3–6
rat α2β4 nAChR = rat α2β4 nAChR (Rattus norvegicus, UniProt P12389+P12392); assay: Two-electrode voltage clamp, rat α2β4 nAChR in Xenopus oocytes; conditions: 10 μM peptide, n = 3–6
rat α6/α3β4 nAChR = rat α6/α3β4 nAChR (Rattus norvegicus, UniProt P04757+P12392+P43143); assay: Two-electrode voltage clamp, rat α6/α3β4 nAChR in Xenopus oocytes; conditions: 10 μM peptide, n = 3–6
mouse α1β1δγ nAChR = assay: Two-electrode voltage clamp, mouse α1β1δγ nAChR in Xenopus oocytes; conditions: 10 μM peptide, n = 3–6

In the case of `N=C(N)NCCC[C@H](NC(=O)[C@@H]1CSSC[C@@H]2NC(=O)[C@@H](NC(=O)CN)CSSC[C@H](NC(=O)[C@H](CCCNC(=N)N)NC(=O)[C@@H]3CCCN3C(=O)[C@H](CC(=O)O)NC(=O)[C@H](CO)NC2=O)C(=O)N[C@@H](CCCNC(=N)N)C(=O)N[C@@H](Cc2ccc(O)cc2)C(=O)N[C@H](CCCNC(=N)N)C(=O)N1)C(=O)O`, the IC50 (rat α7 nAChRs) is reported as 163 nM, the IC50 (human α7 nAChRs) is reported as 463 nM and the “retention time (analytical RP-UPLC), read as hydrophilicity” value [1] is reported as 1.717 min. For the same compound, the “time to complete degradation in human serum” value (Serum stability assay) was ≤ 30 min, the “inhibition of ACh-evoked currents” value (rat α3β2 nAChR) was “below 50%” and the “inhibition of ACh-evoked currents” value (rat α4β4 nAChR) was “below 50%”. The “inhibition of ACh-evoked currents” value (rat α3β4 nAChR) was “below 50%”, the “inhibition of ACh-evoked currents” value (rat α4β2 nAChR) was “below 50%” and the “inhibition of ACh-evoked currents” value (rat α2β4 nAChR) was “below 50%”. For the same compound, the “inhibition of ACh-evoked currents” value (rat α6/α3β4 nAChR) was “below 50%” and the “inhibition of ACh-evoked currents” value (mouse α1β1δγ nAChR) was “below 50%”.

Some compounds may have been tested in ways that are not shown here.
